A mixed list of measured activities; the numbers were collected in NIAID ChemDB.

All rows: tests in culture; species: Mycobacterium smegmatis

An empty or dashed field is not shown.

SMILES	dose	measure	strain	value
CC(=O)N(CCN(C(C)=O)C(C)C)C(C)C		EC50	ATCC 607	>250 µg/mL
CCCCCCCCCCCCSCC#CC(=O)O		MIC99	mc2651	46.3 µM
CC(C)NC(C)C(C)NC(C)C	1000 µg/mL	inhibition	ATCC 607	0%
NNC(=O)c1ccncc1		MIC	MC^2 845	60 µg/mL
CCC(C)(C)NCCNC(C)C	250 µg/mL	inhibition	ATCC 607	0%
COc1c(N2CC[C@@H](CN)C2)c(F)cn2c(=O)n(N)c(=O)c(C3CC3)c12		MIC99	WT	5 µg/mL
CCCCCCSCCCCCCCCCCCCC#CC(=O)O		MIC99	mc2155	70.5 µM
O=C(O)c1cn(C2CC2)c2cc(N3C[C@@H]4CCCN[C@@H]4C3)c(F)cc2c1=O		MIC99	D95Y mutant	0.5 µg/mL
CC(C)(C)NCCCNC(C)(C)C	1000 µg/mL	inhibition	ATCC 607	0%
CCCCCCCCCCCCCCCCC#CC(=O)O		MIC99	mc2651	34 µM
COc1c(N2C[C@@H]3CCCN[C@@H]3C2)c(F)cc2c(=O)n(N)c(=O)n(C3CC3)c12		MIC99	WT	12.5 µg/mL
CCCCCCCCCCCCCC#CCC#CC(=O)O		MIC99	mc2155	86.1 µM
COc1c(N2C[C@@H]3CCCN[C@@H]3C2)c(F)cc2c(=O)[nH]c(=O)n(C3CC3)c12		MIC99	WT	100 µg/mL
CCCCCS(=O)CCCCCCCCCCC#CC(=O)O		MIC99	mc2155	>200 µM
CCCCCN(CCCCC)CCNC(C)C	250 µg/mL	inhibition	ATCC 607	100%

A second listing of 2 rows from above:

SMILES	dose	measure	strain	value
CCCCCS(=O)CCCCCCCCCCC#CC(=O)O		MIC99	mc2155	>200 µM
CC(=O)N(CCN(C(C)=O)C(C)C)C(C)C		EC50	ATCC 607	>250 µg/mL

Percent inhibition refers to the dose given; in toxicity tests it is the harm to the cells. MIC50, MIC90 and the like: level of inhibition, or share of isolates inhibited. Lines come from different laboratories, so protocols vary. ECn: concentration that inhibits the pathogen or its effect by n%.